Among the data in article PMC5512451 are stoichiometry N (copy per trimer) values, retold here.

The target in this experiment is native Env trimer liberated from VLPs (BN-PAGE shift) (HIV-1). Description: native gel or EMSA. (In general: A gel shift assay detects complexes by their altered migration in electrophoresis.)

For N90-VRC38.01 IgG (antibody), the stoichiometry N (copy per trimer) was 1.
